Assay results from US20070099199A1.

Each binder was assayed against HPV E6 #16 PDZ ligand peptide (C-terminal peptide of the E6 protein of HPV 16) (HPV 16) (assay: G assay ELISA, immobilised GST-PDZ, biotin peptide 10 uM).

Binder	OD S/N (ratio to GST-only well)	Ave OD
GST-KIAA0807 PDZ domain 1 (protein) MSPILGYWKIKGLVQPTRLLLEYLEEKYEEHLYERDEGDKWRNKKFELGLEFPNLPYYIDGDVKLTQSMAIIRYIADKHNMLGGCPKERAEISMLEGAVLDIRYGVSRIAYSKDFETLKVDFLSKLPEMLKMFEDRLCHKTYLNGDHVTHPDFMLYDALDVVLYMDPMCLDAFPKLVCFKKRIEAIPQIDKYLKSSKYIAWPLQGWQATFGGGDHPPKSDLIEGRISALGSMRPPIIIHRAGKKYGFTLRAIRVYMGDSDVYTVHHMVWHVEDGGPASEAGLRQGDLITHVNGEPVHGLVHTEVVELILKSGNKVAISTTPLENSS	23.2 and 11.4	
GST-KIAA0973 #288.2 PDZ domain 1 (protein) MSPILGYWKIKGLVQPTRLLLEYLEEKYEEHLYERDEGDKWRNKKFELGLEFPNLPYYIDGDVKLTQSMAIIRYIADKHNMLGGCPKERAEISMLEGAVLDIRYGVSRIAYSKDFETLKVDFLSKLPEMLKMFEDRLCHKTYLNGDHVTHPDFMLYDALDVVLYMDPMCLDAFPKLVCFKKRIEAIPQIDKYLKSSKYIAWPLQGWQATFGGGDHPPKSDLIEGRGLRSPITIQRSGKKYGFTLRAIRVYMGDTDVYSVHHIVWHVEEGGPAQEAGLCAGDLITHVNGEPVHGMVHPEVVELILKSGNKVAVTTTPFE	16.4 and 10.1	
GST-KIAA0147 PDZ domain 1 (protein) MSPILGYWKIKGLVQPTRLLLEYLEEKYEEHLYERDEGDKWRNKKFELGLEFPNLPYYIDGDVKLTQSMAIIRYIADKHNMLGGCPKERAEISMLEGAVLDIRYGVSRIAYSKDFETLKVDFLSKLPEMLKMFEDRLCHKTYLNGDHVTHPDFMLYDALDVVLYMDPMCLDAFPKLVCFKKRIEAIPQIDKYLKSSKYIAWPLQGWQATFGGGDHPPKSDLIEGRILTLTILRQTGGLGISIAGGKGSTPYKGDDEGIFISRVSEEGPAARAGVRVGDKLLEVNGVALQGAEHHEAVEALRGAGTAVQMRVWRERMVEPENAEFIVTD	21.3 and 8.71	3.76 A450 nm and 2.15 A450 nm
GST-KIAA1634 PDZ domain 1 (protein) MSPILGYWKIKGLVQPTRLLLEYLEEKYEEHLYERDEGDKWRNKKFELGLEFPNLPYYIDGDVKLTQSMAIIRYIADKHNMLGGCPKERAEISMLEGAVLDIRYGVSRIAYSKDFETLKVDFLSKLPEMLKMFEDRLCHKTYLNGDHVTHPDFMLYDALDVVLYMDPMCLDAFPKLVCFKKRIEAIPQIDKYLKSSKYIAWPLQGWQATFGGGDHPPKSDLIEGRPSQLKGVLVRASLKKSTMGFGFTIIGGDRPDEFLQVKNVLKDGPAAQDGKIAPGDVIVDINGNCVLGHTHADVVQMFQLVPVNQYVNLTLCRGYPLPDDSED	19 and 19.4	
GST-KIAA1095 PDZ domain 1 (protein) MSPILGYWKIKGLVQPTRLLLEYLEEKYEEHLYERDEGDKWRNKKFELGLEFPNLPYYIDGDVKLTQSMAIIRYIADKHNMLGGCPKERAEISMLEGAVLDIRYGVSRIAYSKDFETLKVDFLSKLPEMLKMFEDRLCHKTYLNGDHVTHPDFMLYDALDVVLYMDPMCLDAFPKLVCFKKRIEAIPQIDKYLKSSKYIAWPLQGWQATFGGGDHPPKSDLIEGRQGEETKSLTLVLHRDSGSLGFNIIGGRPSVDNHDGSSSEGIFVSKIVDSGPAAKEGGLQIHDRIIEVNGRDLSRATHDQAVEAFKTAKEPIVVQVLRRTPRTKMFTP	13.1 and 7.96	2.7 A450 nm and 1.71 A450 nm
GST-Outer Membrane PDZ domain 1 (protein) MSPILGYWKIKGLVQPTRLLLEYLEEKYEEHLYERDEGDKWRNKKFELGLEFPNLPYYIDGDVKLTQSMAIIRYIADKHNMLGGCPKERAEISMLEGAVLDIRYGVSRIAYSKDFETLKVDFLSKLPEMLKMFEDRLCHKTYLNGDHVTHPDFMLYDALDVVLYMDPMCLDAFPKLVCFKKRIEAIPQIDKYLKSSKYIAWPLQGWQATFGGGDHPPKSDLIEGRLLTEEEINLTRGPSGLGFNIVGGTDQQYVSNDSGIYVSRIKENGAAALDGRLQEGDKILSVNGQDLKNLLHQDAVDLFRNAGYAVSLRVQHRLQVQNGIHS	11.4 and 6.25	
GST-Magi2 PDZ domain 1, Q86UL8 408-511 (protein) MSPILGYWKIKGLVQPTRLLLEYLEEKYEEHLYERDEGDKWRNKKFELGLEFPNLPYYIDGDVKLTQSMAIIRYIADKHNMLGGCPKERAEISMLEGAVLDIRYGVSRIAYSKDFETLKVDFLSKLPEMLKMFEDRLCHKTYLNGDHVTHPDFMLYDALDVVLYMDPMCLDAFPKLVCFKKRIEAIPQIDKYLKSSKYIAWPLQGWQATFGGGDHPPKSDLIEGRREKPLFTRDASQLKGTFLSTTLKKSNMGFGFTIIGGDEPDEFLQVKSVIPDGPAAQDGKMETGDVIVYINEVCVLGHTHADVVKLFQSVPIGQSVNLVLCRGYP	11.6 and 7.23	
GST-KIAA0147 PDZ domain 3 (protein) MSPILGYWKIKGLVQPTRLLLEYLEEKYEEHLYERDEGDKWRNKKFELGLEFPNLPYYIDGDVKLTQSMAIIRYIADKHNMLGGCPKERAEISMLEGAVLDIRYGVSRIAYSKDFETLKVDFLSKLPEMLKMFEDRLCHKTYLNGDHVTHPDFMLYDALDVVLYMDPMCLDAFPKLVCFKKRIEAIPQIDKYLKSSKYIAWPLQGWQATFGGGDHPPKSDLIEGRILEGPYPVEEIRLPRAGGPLGLSIVGGSDHSSHPFGVQEPGVFISKVLPRGLAARSGLRVGDRILAVNGQDVRDATHQEAVSALLRPCLELSLLVRRDPAEFIVTD	11.8 and 4.35	2.08 A450 nm and 1.07 A450 nm
GST-NeDLG PDZ domain 2 (protein) MSPILGYWKIKGLVQPTRLLLEYLEEKYEEHLYERDEGDKWRNKKFELGLEFPNLPYYIDGDVKLTQSMAIIRYIADKHNMLGGCPKERAEISMLEGAVLDIRYGVSRIAYSKDFETLKVDFLSKLPEMLKMFEDRLCHKTYLNGDHVTHPDFMLYDALDVVLYMDPMCLDAFPKLVCFKKRIEAIPQIDKYLKSSKYIAWPLQGWQATFGGGDHPPKSDLIEGRITLLKGPKGLGFSIAGGIGNQHIPGDNSIYITKIIEGGAAQKDGRLQIGDRLLAVNNTNLQDVRHEEAVASLKNTSDMVYLKVAKPGSLE	3.99	1.12 A450 nm
GST-DLG1 PDZ domain 1 (protein) MSPILGYWKIKGLVQPTRLLLEYLEEKYEEHLYERDEGDKWRNKKFELGLEFPNLPYYIDGDVKLTQSMAIIRYIADKHNMLGGCPKERAEISMLEGAVLDIRYGVSRIAYSKDFETLKVDFLSKLPEMLKMFEDRLCHKTYLNGDHVTHPDFMLYDALDVVLYMDPMCLDAFPKLVCFKKRIEAIPQIDKYLKSSKYIAWPLQGWQATFGGGDHPPKSDLIEGRIQVNGTDADYEYE[about 80 residues not printed]	4.18	1.09 A450 nm
GST-FLJ00011 PDZ domain 1 (protein) MSPILGYWKIKGLVQPTRLLLEYLEEKYEEHLYERDEGDKWRNKKFELGLEFPNLPYYIDGDVKLTQSMAIIRYIADKHNMLGGCPKERAEISMLEGAVLDIRYGVSRIAYSKDFETLKVDFLSKLPEMLKMFEDRLCHKTYLNGDHVTHPDFMLYDALDVVLYMDPMCLDAFPKLVCFKKRIEAIPQIDKYLKSSKYIAWPLQGWQATFGGGDHPPKSDLIEGRKNPSGELKTVTLSKMKQSLGISISGGIESKVQPMVKIEKIFPGGAAFLSGALQAGFELVAVDGENLEQVTHQRAVDTIRRAYRNKAREPMELVVRVPGPSPRPSPSD	3.97	
GST-FLJ11215 PDZ domain 1 (protein) MSPILGYWKIKGLVQPTRLLLEYLEEKYEEHLYERDEGDKWRNKKFELGLEFPNLPYYIDGDVKLTQSMAIIRYIADKHNMLGGCPKERAEISMLEGAVLDIRYGVSRIAYSKDFETLKVDFLSKLPEMLKMFEDRLCHKTYLNGDHVTHPDFMLYDALDVVLYMDPMCLDAFPKLVCFKKRIEAIPQIDKYLKSSKYIAWPLQGWQATFGGGDHPPKSDLIEGREGHSHPRVVELPKTEEGLGFNIMGGKEQNSPIYISRIIPGGIADRHGGLKRGDQLLSVNGVSVEGEHHEKAVELLKAAQGKVKLVVRYTPKVLEEME	2.74	
GST-RGS12 PDZ domain 1 (protein) MSPILGYWKIKGLVQPTRLLLEYLEEKYEEHLYERDEGDKWRNKKFELGLEFPNLPYYIDGDVKLTQSMAIIRYIADKHNMLGGCPKERAEISMLEGAVLDIRYGVSRIAYSKDFETLKVDFLSKLPEMLKMFEDRLCHKTYLNGDHVTHPDFMLYDALDVVLYMDPMCLDAFPKLVCFKKRIEAIPQIDKYLKSSKYIAWPLQGWQATFGGGDHPPKSDLIEGRRPSPPRVRSVEVARGRAGYGFTLSGQAPCVLSCVMRGSPADFVGLRAGDQILAVNEINVKKASHEDVVKLIGKCSGVLHMVIAEGVGRFESCS	4.64	
GST-HEMBA 1003117 #226.2 PDZ domain 1 (protein) MSPILGYWKIKGLVQPTRLLLEYLEEKYEEHLYERDEGDKWRNKKFELGLEFPNLPYYIDGDVKLTQSMAIIRYIADKHNMLGGCPKERAEISMLEGAVLDIRYGVSRIAYSKDFETLKVDFLSKLPEMLKMFEDRLCHKTYLNGDHVTHPDFMLYDALDVVLYMDPMCLDAFPKLVCFKKRIEAIPQIDKYLKSSKYIAWPLQGWQATFGGGDHPPKSDLIEGREDFCYVFTVELERGPSGLGMGLIDGMHTHLGAPGLYIQTLLPGSPAAADGRLSLGDRILEVNGSSLLGLGYLRAVDLIRHGGKKMRFLVAKSDVETAKKI	2.27	0.477 A450 nm
GST-KIAA1284 PDZ domain 1 (protein) MSPILGYWKIKGLVQPTRLLLEYLEEKYEEHLYERDEGDKWRNKKFELGLEFPNLPYYIDGDVKLTQSMAIIRYIADKHNMLGGCPKERAEISMLEGAVLDIRYGVSRIAYSKDFETLKVDFLSKLPEMLKMFEDRLCHKTYLNGDHVTHPDFMLYDALDVVLYMDPMCLDAFPKLVCFKKRIEAIPQIDKYLKSSKYIAWPLQGWQATFGGGDHPPKSDLIEGRKDVNVYVNPKKLTVIKAKEQLKLLEVLVGIIHQTKWSWRRTGKQGDGERLVVHGLLPGGSAMKSGQVLIGDVLVAVNDVDVTTENIERVLSCIPGPMQVKLTFENAYDVKRET	2.72	
GST-SSTRIP PDZ domain 1 (protein) MSPILGYWKIKGLVQPTRLLLEYLEEKYEEHLYERDEGDKWRNKKFELGLEFPNLPYYIDGDVKLTQSMAIIRYIADKHNMLGGCPKERAEISMLEGAVLDIRYGVSRIAYSKDFETLKVDFLSKLPEMLKMFEDRLCHKTYLNGDHVTHPDFMLYDALDVVLYMDPMCLDAFPKLVCFKKRIEAIPQIDKYLKSSKYIAWPLQGWQATFGGGDHPPKSDLIEGRLKEKTVLLQKKDSEGFGFVLRGAKAQTPIEEFTPTPAFPALQYLESVDEGGVAWRAGLRMGDFLIEVNGQNVVKVGHRQVVNMIRQGGNTLMVKVVMVTRHPDMDEAVQ	3.28	

These binders were tested against HPV16 E6 C-terminal PDZ ligand (PL) peptide, biotinylated (human papillomavirus type 16) (assay: G assay ELISA; immobilised GST-PDZ, biotin-peptide 10 uM).

Binder	Ave OD	OD S/N (ratio vs GST only)
GST-FLJ11215 PDZ domain 1 (protein) MSPILGYWKIKGLVQPTRLLLEYLEEKYEEHLYERDEGDKWRNKKFELGLEFPNLPYYIDGDVKLTQSMAIIRYIADKHNMLGGCPKERAEISMLEGAVLDIRYGVSRIAYSKDFETLKVDFLSKLPEMLKMFEDRLCHKTYLNGDHVTHPDFMLYDALDVVLYMDPMCLDAFPKLVCFKKRIEAIPQIDKYLKSSKYIAWPLQGWQATFGGGDHPPKSDLIEGREGHSHPRVVELPKTEEGLGFNIMGGKEQNSPIYISRIIPGGIADRHGGLKRGDQLLSVNGVSVEGEHHEKAVELLKAAQGKVKLVVRYTPKVLEEME	0.449 A450 nm	2.77
GST-RGS12 PDZ domain 1 (protein) MSPILGYWKIKGLVQPTRLLLEYLEEKYEEHLYERDEGDKWRNKKFELGLEFPNLPYYIDGDVKLTQSMAIIRYIADKHNMLGGCPKERAEISMLEGAVLDIRYGVSRIAYSKDFETLKVDFLSKLPEMLKMFEDRLCHKTYLNGDHVTHPDFMLYDALDVVLYMDPMCLDAFPKLVCFKKRIEAIPQIDKYLKSSKYIAWPLQGWQATFGGGDHPPKSDLIEGRRPSPPRVRSVEVARGRAGYGFTLSGQAPCVLSCVMRGSPADFVGLRAGDQILAVNEINVKKASHEDVVKLIGKCSGVLHMVIAEGVGRFESCS	0.429 A450 nm	3.96

“And” between values parts separate entries of the source, which are not always exact repeats. Identical values can stand only once.
